Reference: publication PMC9570423
Construct, isoform or probe ends are uncertain for at least one entry.

How the values were obtained:
[1] = tested on: PagR1Bc (Bacillus cereus F4810/72 (AH187), plasmid pCER270); experiment: EMSA; settings: competing EMSAunspec7 present; recombinant protein; residues 1-97; protein details: N-terminal His6; probe letters rebuilt from the primers and the genome
[2] = tested on: PagRBc (Bacillus cereus F4810/72 (AH187), plasmid pCER270); experiment: EMSA; settings: competing EMSAunspec7 present; recombinant protein; residues 1-99; protein details: C-terminal His6; probe letters rebuilt from the primers and the genome

GTGTTTCATTGAAAAATCCCTCTTTTAAAAAAAGTAAAATACAAAAACATTCATTTTCCTTAATACATTATTAACTTTTCTTCGCACAAGTTAATTAACCAAAATTATACAATTTTCATTATAAACAATTATTAATATTCACGCAATACGAATTATTAGAATATTAATAATTTTATTTATTTCAATTTCATACGGGTACGGCAACGATTACTTTTTTGGGGACTCGTTATATTGGCTAACAGAATTGGTATTCCGTTAACTTTTTATATTGATTTTGAAAACATTTGTTTACAGAATATAGATAAATCATTATAAAAATGTGTTTACAGAACTAATTTTTACAGGTTTTCTTGTAGTATTGTAATAAAATTTAATAAAAAGAACACAGCTATCCTTAGGAATCCGAATTAGAAATTACTGAATACAACATCAAAAAAATTATCAGATCGTAGCCGAAAGCCAAGAGGTTTCTTATCACCATGTATATCAATGAATAAGAAGTTAGAAGCACACGTTGAAGAAG (double strand) [cesP main promoter (cesPII), 523 bp]
Kd [1]: 150 nM
Kd [2]: 25 nM
